# Test results taken from US20170081323A1 (priority 2015, published 2017).
# Biological target: PB2 cap binding domain (PB2-CBD) (residues 318-483) (Influenza A virus (A/duck/Shantou/4610/2003(H5N1)), UniProt Q2LG68)
# Assay: Cap Fluorescence-Polarization Ligand Displacement (CapFP-LD) assay
# Settings: read-out: Fp Ki; displacement of tracer m7GTP-5FAM from PB2-CBD
row,Structure (SMILES),Ki [µM]
1,O=c1[nH]nc2ccc(-c3cccc4ccccc34)cn12,13.3
2,O=c1[nH]nc2ccc(-c3cccc(-c4ccccc4)c3)cn12,27.4
3,O=c1[nH]nc2ccc(-c3ccc(-c4ccccc4)cc3)cn12,170
4,O=c1[nH]nc2ccc(Br)cn12,314
5,O=c1[nH]nc2ccc(-c3cccc(F)c3)cn12,35.3
6,O=c1[nH]nc2ccc(-c3ncc(F)cn3)cn12,105
7,O=c1[nH]nc2ccc(-c3ccc(Cl)cc3)cn12,2.8
8,O=c1[nH]nc2ccc(-c3ccccc3Cl)cn12,3.2
9,O=c1[nH]nc2ccc(-c3cccc(Cl)c3)cn12,19.3
10,O=c1[nH]nc2ccc(-c3ccccc3)cn12,33.2
11,O=c1[nH]nc2ccc(Oc3ccccc3)cn12,416
12,COc1ccc(-c2ccc3n[nH]c(=O)n3c2)c(Cl)c1,2.76
13,O=c1[nH]nc2ccc(-c3cccc(F)c3F)cn12,26.9
14,O=c1[nH]nc2ccc(-c3cccc(-c4c(F)cccc4F)c3)cn12,13.7
15,Cc1ccc(C)c(-c2ccc3n[nH]c(=O)n3c2)c1,23.2

# Same assay, conditions: read-out: Fp; printed as bound without parameter name; displacement of tracer m7GTP-5FAM from PB2-CBD
row,Structure (SMILES),Ki [µM]
1,O=c1[nH]nc2n1C(OCC1CC1)CCC2 (stereo not drawn),> 50
2,O=c1[nH]nc2c(-c3ccccc3)cccn12,> 50
3,O=C1NNC2CCCC(CCC3CC3)N12 (stereo not drawn),> 50
4,O=c1[nH]nc2ccc(-c3ccccc3Cl)c(Oc3ccccc3)n12,> 50
5,O=c1[nH]nc2ccc(-c3ccccc3Cl)c(OCC3CC3)n12,> 50
6,O=c1[nH]nc2ccc(-c3ccccc3-c3ccccc3)cn12,> 50
7,O=c1[nH]nc2cccc(-c3ccccc3)n12,> 50
8,O=c1[nH]nc2ccc(-c3ccccc3-c3cccc(F)c3)cn12,> 50
9,O=c1[nH]nc2ccc(Br)c(Oc3ccccc3)n12,> 50
10,O=c1[nH]nc2cccc(Oc3ccccc3)n12,> 50
11,O=c1[nH]nc2ccc(-c3ccccc3)c(OCC3CC3)n12,> 50
12,O=c1[nH]nc2cccc(C#CC3CC3)n12,> 50
13,O=c1[nH]nc2cc(-c3ccccc3)ccn12,> 50
14,O=c1[nH]nc2cccc(-c3ncccn3)n12,> 50
15,O=c1[nH]nc2ccc(-c3ccccc3-c3ccncc3)cn12,> 50
